Columns and labels:
muscle AChE = experiment: Muscle AChE-R accumulation and AChE activity in sequential fractions, 10 days post-treatment; details: lethal dose of paraoxon
NMJ = NMJ density and area in diaphragm (AChE activity staining); details: 0.8×LD50 paraoxon vs PBS control, 10 days
plasma AChE = experiment: Delayed effects of OP poisoning: survival and plasma AChE 10 days post-treatment; details: unprotected, sub-lethal (0.8 LD50) paraoxon challenge

SMILES: CCOP(=O)(OCC)Oc1ccc([N+](=O)[O-])cc1
- decrease in membrane-bound detergent-soluble forms of AChE (muscle AChE): 50%
- NMJ density and fraction of large NMJs (NMJ): increased both the density and the fraction of large NMJs
- survival rate (plasma AChE): 100%

Source: patent US20110064716A1, “MATERIALS AND METHODS FOR TREATING OR PREVENTING ORGANOPHOSPHATE EXPOSURE ASSOCIATED DAMAGE” (published 2011)
